The text below walks through data of PubChem BioAssay AID488862 (Broad Institute, 2010).

Molecules are shown by their SMILES. This is a selection; strong and weak results do not stand in their true shares. The source made the active and inactive calls. Rule as the data show it: active = inhibition above about 52%; inactive = the rest.

This assay can be described thus: suppresses PrP 5' UTR mRNA reporter expression (AID 488862). Also: 0 = median of the neutral control wells. As to conditions: cell-based PrP 5' UTR mRNA reporter, plate reader; stronger effect = higher value; concentration not given here.
Turning to `Cc1cc(C)cc(OP(C)(=O)Nc2ccc(C)cc2C)c1` (centres undefined), the inhibition – broadly, the change of the read-out against control, counted positive when it falls – was inactive: -25.5%. As for `CCOC(=O)c1ccc(NP(C)(=O)Oc2cc(C)cc(C)c2)cc1` (centres undefined), the figure is inactive: 14.4%; as for `O=C(OC1CN2CCC1CC2)c1ccc(Cl)cc1` (centres undefined), inactive: -27.7%; as for `COc1cc(C(=O)NCC2(N3CCOCC3)CCCCC2)cc(Cl)c1OC(C)C`, inactive: -13.3%. Take `O=[As](O)(O)c1cccnc1`: the inhibition is inactive: -7.65%.

As to `CS(=O)(=O)c1ccc(Cl)c(NC(=O)COC(=O)C(O)(c2ccccc2)c2ccccc2)c1`, the inhibition was inactive: -26.3%.

With `COc1ccccc1OP(C)(=O)Nc1cccc(Br)c1` (centres undefined), the inhibition was inactive: -22.1%. As for `N#CCCN(C(=O)COC(=O)C(O)(c1ccccc1)c1ccccc1)c1ccc(F)cc1`, the figure is inactive: -122%; as for `CCOP1(=S)c2c(C)nn(CCC#N)c2N=C(c2ccc(F)cc2)N1C` (centres undefined), inactive: -10.4%. Consider `CN(C(=O)Cc1ccccc1)[C@@H]1CC[C@]2(CCCO2)C[C@H]1N1CCCC1`, for which the inhibition is inactive: -15.8%. Turning to `CN(C)C(=O)c1cc([N+](=O)[O-])cc2c1-c1c(cc([N+](=O)[O-])cc1[N+](=O)[O-])C2=O`, the inhibition is inactive: -1.15%. As for `O=[N+]([O-])c1ccc2c(c1)nnn2O`, the figure is inactive: 1.31%; as for `CN(C(=O)Cc1ccc(Cl)c(Cl)c1)[C@H]1CC[C@@]2(CCCO2)C[C@@H]1N1CCCC1`, inactive: -69.7%; as for `CC1=NCCc2c1[nH]c1ccccc21.O=[N+]([O-])c1cc([N+](=O)[O-])c(O)c([N+](=O)[O-])c1`, inactive: -0.23%. As for `NC(=O)Nc1ccc([As](=O)(O)O)cc1`, the figure is inactive: -6.12%; as for `O=C(O)COc1ccc([As](=O)(O)O)cc1[N+](=O)[O-]`, inactive: -3.28%. The value for `Nc1ccccc1[As](=O)(O)c1ccccc1` was inactive: -8.86%; that for `O=C(O)c1cccc(Nc2c([N+](=O)[O-])cc([N+](=O)[O-])cc2[N+](=O)[O-])c1` was inactive: 7.18%. As to `CCOP1(=S)c2c(C)nn(CCC#N)c2N=C(c2ccccc2F)N1C` (centres undefined), the inhibition is inactive: -30.4%.

Turning to `O=P(Nc1nccs1)(c1ccccc1)c1nc2ccccc2s1` (centres undefined), the inhibition was inactive: -2.35%. As for `O=P(Nc1nccs1)(Oc1ccccc1)Oc1ccccc1`, the figure is inactive: -12.6%; as for `CS(=O)(=O)c1cc([N+](=O)[O-])c2no[n+]([O-])c2c1`, inactive: 11.9%.

For `Nc1cccc([As](=O)(O)c2ccccc2)c1`, the inhibition is inactive: 0.782%. As for `CP(=O)(Nc1ccc(SC(F)(F)F)cc1)Oc1ccccc1` (centres undefined), the figure is inactive: -15.3%; as for `CCCOc1ccc(NP(C)(=O)Oc2ccc(Cl)cc2)cc1` (centres undefined), inactive: -10.4%. The value for `NS(=O)(=O)c1cccc(NC(=O)COC(=O)C(O)(c2ccccc2)c2ccccc2)c1` was inactive: -10.4%; that for `O=P1(Nc2ccc(Br)cn2)COc2ccccc2OC1` was inactive: 0.369%. The value for `O=[As](O)(c1cccs1)c1cccs1` was inactive: -16.9%; that for `Cc1ccc(OCC(=O)OC2CN3CCC2CC3)cc1` (centres undefined) was inactive: -23.8%.

As to `O=P1(Nc2ncccn2)COc2ccccc2OC1`, the inhibition was inactive: -9.71%.

`CN1CCCCC1COC(=O)C1(O)c2ccccc2CCc2ccccc21` (centres undefined): the inhibition is inactive: -0.628%. As for `COc1ccccc1OP(C)(=O)Nc1c(C)cccc1C` (centres undefined), the inhibition is inactive: -6.24%. For `O=[N+]([O-])c1cc([N+](=O)[O-])c(Nc2nnnn2CCO)c([N+](=O)[O-])c1`, the inhibition was inactive: -6.86%.

Turning to `CC1=C2N=C(C=C3N=C(C(C)=C4[N-][C@@](C)([C@@H]5N=C1[C@](C)(CCC(=O)NC[C@@H](C)OP(=O)([O-])O[C@H]1[C@@H](O)[C@@H](n6cnc7cc(C)c(C)cc76)O[C@@H]1CO)[C@H]5CC(N)=O)[C@@](C)(CC(N)=O)[C@@H]4CCC(N)=O)[C@@](C)(CC(N)=O)[C@@H]3CCC(N)=O)C(C)(C)[C@@H]2CCC(N)=O.[C-]#N.[Co+3]`, the inhibition is inactive: -28.9%. The value for `CN(C)C1(CNC(=O)c2ccc(S(C)(=O)=O)cc2)CCCCC1` was inactive: -10.2%; that for `CCOC(=O)C(CC)C1=NC(C)(C)Cc2ccccc21.O=[N+]([O-])c1cc([N+](=O)[O-])c(O)c([N+](=O)[O-])c1` (centres undefined) was inactive: 6.95%; that for `O=C(/C=C/c1ccccc1)OC1CN2CCC1CC2` (centres undefined) was inactive: -31.9%. As for `CCCC1OP(=O)(Nc2ccccc2)OCC1CC` (centres undefined), the inhibition was inactive: -10.7%. Take `Cc1nn(-c2ccccc2)c2c1P(=O)(N1CCOCC1)N(C)C(c1ccccc1)=N2` (centres undefined): the inhibition is inactive: -31.2%. As for `Cc1ccc(C(=O)OC2CN3CCC2CC3)cc1` (centres undefined), the inhibition was inactive: -10.9%. Take `CC1CCC(C(C)C)C(OP(=O)(Nc2ccccn2)c2ccccc2)C1` (centres undefined): the inhibition was inactive: 3.2%. The value for `COc1cc(C2NCCC3(OCCO3)C2(C)C)cc(OC)c1OC.O=[N+]([O-])c1cc([N+](=O)[O-])c(O)c([N+](=O)[O-])c1` (centres undefined) was inactive: -12.3%; that for `CN(C(=O)Cc1ccc(Cl)c(Cl)c1)[C@@H]1CCCC[C@H]1N1CCCC1` was inactive: -14.7%; that for `CC(C)/C=N\N=C(\N)N[N+](=O)[O-]` was inactive: -8.41%. The value for `Cc1nc2ccc3ccccc3c2s1.O=[N+]([O-])c1cc([N+](=O)[O-])c(O)c([N+](=O)[O-])c1` was inactive: -19%; that for `CC1(CBr)Cn2c(nc3ccccc3c2=O)S1` (centres undefined) was inactive: -3.44%. The value for `O=[N+]([O-])c1cc([N+](=O)[O-])c(-c2cnn(-c3ccccc3)c2)c([N+](=O)[O-])c1` was inactive: -24.3%; that for `COc1ccccc1CNC(=O)COC(=O)C(O)(c1ccccc1)c1ccccc1` was inactive: -24.5%; that for `Clc1n[nH]nc1-c1nn[nH][15n]1` was inactive: -23%. With `CC(C)(C)C(=O)NC(Sc1ncccn1)C(Cl)(Cl)Cl` (centres undefined), the inhibition was inactive: -3.76%. For `CCC1=CC2Cc3nc4ccc(Cl)cc4c(N)c3C(C1)C2` (centres undefined), the inhibition was inactive: 10.4%. Regarding `O=P1(Nc2ccccn2)COc2ccccc2OC1`, the inhibition is inactive: 5.25%. With `CCOP(=O)(NC(=NC(C)c1ccccc1)NC(C)c1ccccc1)OCC` (centres undefined), the inhibition is inactive: -21.2%.

For the molecule `O=[N+]([O-])c1cc([N+](=O)[O-])c(-n2nnc3ccccc32)c([N+](=O)[O-])c1`, the inhibition was inactive: -9.58%.
